Library screen at single concentrations

Source: ChEMBL document CHEMBL3988442, “University of Dundee, Small-Polar-MMV Screening Library” (2021).

A: 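Growth of Mycobacterium tuberculosis over 3 days (7H9 medium with glucose and tyloxapol); the read-out is not stated. Concentration: 500 µM. Direction is inferred from retests: higher values go with more growth inhibition. Of about 18,000 compounds tested this way, about 1,400 (7.9%) reached 50% or more in at least one test.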
B: 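Phenotypic screen: M. tuberculosis growth, cholesterol and DPPC medium, 4 days; the read-out is not stated. Concentration: 500 µM. The record gives no direction; compounds that gave an IC50 in retests scored well above the rest, so higher reads as more growth inhibition. About 18,000 compounds were tested under these conditions; 5% (about 900) showed 50% or more at least once.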

Results are given as percent effect. The record does not define 0% and 100%; most values in the screen are far below 50% and negative numbers occur (in some assays of this library far below -100). This is part of a subset picked to be rich in strong results.

{"structure": "CCNC(=O)C(C)Nc1nc2ccccc2o1", "stereo": "stereo not shown", "B": 13.02}
{"structure": "CCOCCC(=O)Nc1ccc2c(c1)C(=O)N(C)C2=O", "A": 1.029}
{"structure": "COc1ccc(OC)c(CNC(=O)C(C)NC(N)=O)c1", "stereo": "stereo not shown", "A": -14.16}
{"structure": "CN(C)CCNC(=O)c1cc(F)cc(F)c1", "A": 5.362}
{"structure": "O=C1CN(Cc2nc3ccsc3c(=O)[nH]2)CCN1", "A": 3.395}
{"structure": "CC1CCCN(CC(=O)Nc2ccccc2C(N)=O)C1", "stereo": "stereo not shown", "A": 70.88, "B": 66.77}
{"structure": "CS(=O)(=O)c1cccc(C(=O)NCC2(O)CCNC2)c1", "stereo": "stereo not shown", "A": 13.45}
{"structure": "Cc1ccc(C(=O)NCCNS(=O)(=O)C(C)C)cc1F", "A": 63.72}
{"structure": "COC(=O)c1ccc2c(c1)CCCCC2=O", "A": -11.42}
{"structure": "CN(CCN1CCOCC1)C1CCNCC1", "B": -2.479}
{"structure": "CCN1CCN(C(=O)c2ccc(C)c(C)c2)CC1", "B": 50.36}
{"structure": "CC(C)(C)OC(=O)[C@H]1CCCN1CCO", "B": 11.1}
{"structure": "CC(C)NC(=O)c1cccc(CN)c1", "A": 11.86}
{"structure": "CN1CCCC2(CCN(C(=O)N3CCCC3)C2)C1=O", "stereo": "stereo not shown", "A": 4.425}
{"structure": "O=S(=O)(CCN1CCOCC(O)C1)c1ccccc1", "stereo": "stereo not shown", "A": 40.71, "B": 30.65}
{"structure": "CCc1ncc(CN(C)C(=O)c2nccnc2N)s1", "A": 36.26}
{"structure": "Cc1ccc(C(C)C(=O)NCCS(N)(=O)=O)s1", "stereo": "stereo not shown", "A": -5.104}
{"structure": "Cn1c(=O)oc2ccc(NCc3ccco3)cc21", "A": -3.101}
{"structure": "CN1CCCN(C(=O)c2ccc(F)cc2)CC1", "A": -4.381, "B": -6.885}
{"structure": "CN(CC(N)=O)C(=O)Cc1cnn(-c2ccccc2)c1", "B": -17.93}
{"structure": "Cc1ccc(CNC(C(N)=O)c2ccccc2)o1", "stereo": "stereo not shown", "A": 4.94}
{"structure": "CCS(=O)(=O)N1CCN(c2ccc(C)nn2)CC1", "B": -3.241}
{"structure": "Cc1cc(C)cc(NC(=O)CCN2CCSCC2)c1", "A": -14.56}
{"structure": "OCc1cc(N2CCC(O)CC2)ccn1", "A": 3.285}
{"structure": "CC(C)N(C)S(=O)(=O)N1CCCN(C)CC1", "A": 1.436}
{"structure": "NS(=O)(=O)c1cccc2c1CCCN2Cc1nccs1", "A": 50.34, "B": 9.715}
{"structure": "CSCCCNC(=O)c1ccc(CN(C)C)o1", "B": 2.619}
{"structure": "CC(=O)N1CCN(C(=O)c2nccnc2N)CC1", "B": 2.485}
{"structure": "Cn1cncc1CCNS(=O)(=O)c1cccs1", "B": 18.48}
{"structure": "COCc1nc(CCNC(=O)Cc2cccnc2)no1", "A": 3.242}
{"structure": "CC(O)c1cccc(OCCC2OCCO2)c1", "stereo": "stereo not shown", "B": 41.14}
{"structure": "Cc1ccc2c(OCC(N)=O)cccc2n1", "B": -3.914}
{"structure": "Cn1cc(CN)c(C(F)(F)F)n1", "B": -3.417}
{"structure": "CCC(C)[C@H](NC(=O)N1CCCC1)C(N)=O", "stereo": "stereo partly shown", "B": -11.81}
{"structure": "Cn1cc(C(=O)NCCCN2CCOCC2)ccc1=O", "A": 0.8018}
{"structure": "CCNS(=O)(=O)C1CCN(Cc2csnn2)C1", "stereo": "stereo not shown", "B": 6.375}
{"structure": "CN(CC(=O)NCc1ccccn1)S(C)(=O)=O", "B": -21.85}

Some entries from above, unchanged:

{"structure": "CCN1CCN(C(=O)c2ccc(C)c(C)c2)CC1", "B": 50.36}
{"structure": "CCNS(=O)(=O)C1CCN(Cc2csnn2)C1", "stereo": "stereo not shown", "B": 6.375}
{"structure": "CCC(C)[C@H](NC(=O)N1CCCC1)C(N)=O", "stereo": "stereo partly shown", "B": -11.81}
{"structure": "CN(CC(=O)NCc1ccccn1)S(C)(=O)=O", "B": -21.85}